For at least one entry, the source does not settle the construct or the ends of the probe.
Molecular target: Scabin WT (Streptomyces scabies) (UniProt C9Z6T8)
Assay: fluorescence (Cy3-labelled ds-DNA), format not stated
Conditions: DNA-binding assay buffer; recombinant protein

Sequence: GGAAGAGAGAGAGAAAGAGAG (double strand) [21-bp ds-DNA (Cy3)]
- Kd: 51 µM

Source: PMC7828395, “Mapping the DNA-Binding Motif of Scabin Toxin, a Guanine Modifying Enzyme from Streptomyces scabies” (Toxins, 2021)
